In the assay the target is NiVB-G (Nipah virus, strain Bangladesh). In words: ELISA [panel B].

B1: HENV-222 (antibody, V domains shown)
VH: QVQLQESGPGLVKPSETLSLTCTVSGGSIDSYYWSWIRQPAGKGLEWIGRIYPSGTTNYNPSLKSRVTMSVDTSKNQFSLKVTSVTAADTAVYYCARMQTGFGSSLFFVPYFDNWGQGTLVTVSS
VL: EIVLTQSPATLSLSPGERATLSCRASQSVSSYLAWYQQKPGQAPRLLIYDASNRATGIPARFSGSGSGTDFTLTISSLEPEDFAVYYCQQRGNWPLTFGGGTKVEIK
Molecule B1 showed an EC50 of 5.8 nM.

Values taken from patent US12559545 (VANDERBILT UNIVERSITY, dated 2026).
